From PubChem BioAssay AID212 (DTP/NCI, 2004)
Records with an inconclusive call do not appear.

System: BDF1 mice, colon carcinoma 38 sc, T/C %
Assay: NCI In Vivo Anticancer Drug Screen. Data for tumor model Colon Carcinoma 38 (subcutaneous) in B6D2F1 (BDF1) mice
Conditions: endpoint: median tumor weight (est.), schedule: Q07DX002 (ip), vehicle: saline, higher = larger tumour
Method: The antitumor activity of compounds was measured in mice bearing transplantable tumors. Survival or tumor size were measured and the results are expressed as the measurement made in the treated group (T) divided by the measurement made in the vehicle treated control group (C). The tumor model used in this assay is Colon Carcinoma 38 (subcutaneous) in B6D2F1 (BDF1) mice

SMILES: O=P1(N(CCCl)CCCl)NC(SCCS(=O)(=O)O)CCO1 (stereo not drawn)
- T/C (dose: 50.0 mg/kg/injection): 98 % of control
- T/C (dose: 100.0 mg/kg/injection): 51 % of control
- T/C (dose: 200.0 mg/kg/injection): 16 % of control
